Experimental data from US20050181509A1 (priority 2004, published 2005).

Key:
[1] = test system: M. grisea transformants generated using pBHt2-tk (ChGPD-HSVtk); assay: Growth of HSVtk transformants in the presence of nucleoside analogs (M. grisea)
[2] = test system: M. grisea 4091-5-8 transformants; assay: Regeneration of transformants under direct selection with hygromycin B and F2dU (M. grisea); conditions: 50 μM F2dU during regeneration with hygromycin B

O=c1[nH]c(=O)n([C@H]2C[C@H](O)[C@@H](CO)O2)cc1F [F2dU, 5-fluoro-2′-deoxyuridine]
sensitivity of transformants [1]: exhibited sensitivity | effective concentration for completely blocking the growth ([1]; complete medium): approximately 0.5 μM | reduction of the number of transformants relative to that generated in the presence of 0 or 5 μM F2dU [2]: 2 to 4 fold

Nc1nc(O)c2ncn(COC(CO)CO)c2n1 [Ganciclovir]
sensitivity of transformants [1]: exhibited sensitivity | concentration needed to achieve the same degree of growth inhibition (complete block) ([1]; complete medium): 1 mM
